Results of unrelated studies side by side (data: NIAID ChemDB).

Shared fields: tests in culture; agent: Mycobacterium avium intracellulare; endpoint: MIC

Lines come from different laboratories, so protocols vary. An empty or dashed field is not shown.

NC[C@H]1O[C@H](O[C@H]2[C@H](O)[C@@H](O[C@H]3O[C@H](CO)[C@@H](O)[C@H](N)[C@H]3O)[C@H](N)C[C@@H]2N)[C@H](O)[C@@H](O)[C@@H]1O ; strain or isolate: N-475 (HIV-) ; value: 0.25 µg/mL
CC1CN(c2cc3c(cc2F)c(=O)c(C(=O)O)cn3-c2ccc(F)cc2F)CCN1 ; value: 0.8 µg/mL
NNC(=O)c1ccncc1 ; value: 2 µg/mL
Nc1nc(N)c2c(n1)NC(c1ccccc1)CC(c1ccc3c(c1)OCO3)=N2 ; strain or isolate: MNT1408 ; read by: MTT / broth dilution / absorbance ; conditions: clinical isolate ; value: >32 µg/mL
NCC[C@H](O)C(=O)N[C@@H]1C[C@H](N)[C@@H](O[C@H]2O[C@H](CN)[C@@H](O)[C@H](O)[C@H]2O)[C@H](O)[C@H]1O[C@H]1O[C@H](CO)[C@@H](O)[C@H](N)[C@H]1O ; strain or isolate: ATCC 13950 ; value: 8 µg/mL
CC[C@H]1OC(=O)[C@H](C)[C@@H](O[C@H]2C[C@@](C)(OC)[C@@H](O)[C@H](C)O2)[C@H](C)[C@@H](O[C@@H]2O[C@H](C)C[C@H](N(C)C)[C@H]2O)[C@](C)(OC)C[C@@H](C)C(=O)[C@H](C)[C@@H](O)[C@]1(C)O ; strain or isolate: N-260 ; value: 4 µg/mL
Nc1nc(N)c2c(n1)NC(c1ccc(C(F)(F)F)cc1)CC(c1ccc3c(c1)OCO3)=N2 ; strain or isolate: MNT1408 ; read by: MTT / broth dilution / absorbance ; conditions: clinical isolate ; value: >32 µg/mL
CC1CCc2cc(F)cc3c(=O)c(C(=O)O)cn1c23 ; value: >250 µg/mL
COc1cc(O)cc(/C=C/c2cc3ccccc3s2)c1 ; read by: broth dilution ; value: 32 µg/mL
CCn1cc(C(=O)O)c(=O)c2cc(F)c(N3CCN(C)CC3)cc21 ; value: 10 µg/mL
COc1ccc(C2CC(c3ccc4c(c3)OCO4)=Nc3c(N)nc(SC)nc3N2)cc1 ; strain or isolate: MNT1408 ; read by: MTT / broth dilution / absorbance ; conditions: clinical isolate ; value: >32 µg/mL
CC1=CN=C2c3ccccc3C(=O)C3N=CC=C1C23 ; value: 0.39 µg/mL
CO[C@H]1/C=C/O[C@@]2(C)Oc3c(C)c(O)c4c(O)c(c5c(c4c3C2=O)NC2(CCN(CC(C)C)CC2)N=5)=NC(=O)/C(C)=C\C=C\[C@H](C)[C@H](O)[C@@H](C)[C@@H](O)[C@@H](C)[C@H](O)[C@@H]1C ; strain or isolate: CDC1 ; value: 0.075 µg/mL
NCC[C@H](O)C(=O)N[C@@H]1C[C@H](N)[C@@H](O[C@H]2O[C@H](CN)[C@@H](O)[C@H](O)[C@H]2O)[C@H](O)[C@H]1O[C@H]1O[C@H](CO)[C@@H](O)[C@H](N)[C@H]1O ; value: 2 µg/mL
Nc1nc(N)c2c(n1)NC(c1ccc(Cl)cc1)CC(c1ccc3c(c1)OCO3)=N2 ; strain or isolate: MNT1408 ; read by: MTT / broth dilution / absorbance ; conditions: clinical isolate ; value: >32 µg/mL
CC(=O)NCC1CN(c2ccc(C(C)=O)cc2)C(=O)O1 ; strain or isolate: 1 isolates ; value: >250 µg/mL
CO[C@H]1/C=C/O[C@@]2(C)Oc3c(C)c(O)c4c(O)c(c(/C=N/N5CCN(C)CC5)c(O)c4c3C2=O)NC(=O)/C(C)=C\C=C\[C@H](C)[C@H](O)[C@@H](C)[C@@H](O)[C@@H](C)[C@H](OC(C)=O)[C@@H]1C ; strain or isolate: CIPT 140310031 ; value: 0.1 µg/mL
Nc1nc(N)c2c(n1)NC(c1ccc(F)cc1)CC(c1ccc3c(c1)OCO3)=N2 ; strain or isolate: MNT1408 ; read by: MTT / broth dilution / absorbance ; conditions: clinical isolate ; value: >32 µg/mL
CCn1cc(C(=O)O)c(=O)c2ccc(C)nc21 ; value: >250 µg/mL
COC1/C=C\C2=C[C@]34CN5CCCC/C=C\CCC(=C[C@@H](c6nccc7c6[nH]c6ccccc67)[C@H]3CC5)[C@@H]4N2CCC1 ; value: 2 µg/mL
CC(C)N=c1cc2n(-c3ccc(Cl)cc3)c3ccccc3nc-2cc1Nc1ccc(Cl)cc1 ; strain or isolate: ATCC35761 ; value: 3 µg/mL
CC[C@H]1OC(=O)[C@H](C)[C@@H](O[C@H]2C[C@@](C)(OC)[C@@H](O)[C@H](C)O2)[C@H](C)[C@@H](O[C@@H]2O[C@H](C)C[C@H](N(C)C)[C@H]2O)[C@](C)(OC)C[C@@H](C)C(=O)[C@H](C)[C@@H](O)[C@]1(C)O ; strain or isolate: ATCC 13950 ; value: 2 µg/mL
Nc1nc(N)c2c(n1)NC(c1ccc3c(c1)OCO3)CC(c1ccccc1)=N2 ; strain or isolate: MNT1408 ; read by: MTT / broth dilution / absorbance ; conditions: clinical isolate ; value: >32 µg/mL
CC[C@H]1OC(=O)[C@H](C)[C@@H](O[C@H]2C[C@@](C)(OC)[C@@H](O)[C@H](C)O2)[C@H](C)[C@@H](O[C@@H]2O[C@H](C)C[C@H](N(C)C)[C@H]2O)[C@](C)(OC)C[C@@H](C)C(=O)[C@H](C)[C@@H](O)[C@]1(C)O ; value: 0.13 µg/mL

3 of the rows above, restated:

SMILES	strain or isolate	read by	conditions	value
Nc1nc(N)c2c(n1)NC(c1ccc(C(F)(F)F)cc1)CC(c1ccc3c(c1)OCO3)=N2	MNT1408	MTT / broth dilution / absorbance	clinical isolate	>32 µg/mL
NCC[C@H](O)C(=O)N[C@@H]1C[C@H](N)[C@@H](O[C@H]2O[C@H](CN)[C@@H](O)[C@H](O)[C@H]2O)[C@H](O)[C@H]1O[C@H]1O[C@H](CO)[C@@H](O)[C@H](N)[C@H]1O	ATCC 13950			8 µg/mL
CC[C@H]1OC(=O)[C@H](C)[C@@H](O[C@H]2C[C@@](C)(OC)[C@@H](O)[C@H](C)O2)[C@H](C)[C@@H](O[C@@H]2O[C@H](C)C[C@H](N(C)C)[C@H]2O)[C@](C)(OC)C[C@@H](C)C(=O)[C@H](C)[C@@H](O)[C@]1(C)O	ATCC 13950			2 µg/mL